# The other results are listed elsewhere or left out. Entries with a potency or affinity are not part of this list. Calls of active or inactive are those of the source. No rule for the calls is given here.
# Experiment: West Nile virus antiviral activity, cell-based, CPE readout (AID 1621)
# Conditions: West Nile virus-infected cells, at 10 µM, hits give high values
row,SMILES,CPE inhibition
1,CC1CCC(C(C)C)C(OP(=O)(Nc2ccccn2)c2ccccc2)C1 (configuration not stated),inactive: -0.83%
2,Cc1ccc(C(=O)OC2CN3CCC2CC3)cc1 (configuration not stated),inactive: -0.2%
3,Cc1nn(-c2ccccc2)c2c1P(=O)(N1CCOCC1)N(C)C(c1ccccc1)=N2 (configuration not stated),inactive: -0.26%
4,CN(C)C1(CNC(=O)c2ccc(S(C)(=O)=O)cc2)CCCCC1,inactive: -0.71%
5,O=C(/C=C/c1ccccc1)OC1CN2CCC1CC2 (configuration not stated),inactive: 0.78%
6,O=P1(Nc2ncccn2)COc2ccccc2OC1,inactive: -0.25%
7,Nc1cccc([As](=O)(O)c2ccccc2)c1,inactive: 0.78%
8,O=P1(Nc2ccc(Br)cn2)COc2ccccc2OC1,inactive: 0.27%
9,O=[As](O)(c1cccs1)c1cccs1,inactive: 0.72%
10,Cc1ccc(OCC(=O)OC2CN3CCC2CC3)cc1 (configuration not stated),inactive: 0.41%
11,CCOP(=O)(NC(=NC(C)c1ccccc1)NC(C)c1ccccc1)OCC (configuration not stated),inactive: -1.35%
12,O=P1(Nc2ccccn2)COc2ccccc2OC1,inactive: 0%
13,CCC1=CC2Cc3nc4ccc(Cl)cc4c(N)c3C(C1)C2 (configuration not stated),inactive: 13.6%
14,CN(CCCl)Cc1cc(Cl)c(NC2=NCCN2)c(Cl)c1,inactive: -0.84%
15,CCOP(=O)(Nc1ccc(C)cn1)OCC,inactive: 0.06%
16,CC(C)(C)C(=O)NC(Sc1ncccn1)C(Cl)(Cl)Cl (configuration not stated),inactive: -0.04%
17,Clc1n[nH]nc1-c1nn[nH][15n]1,inactive: 0.46%
18,CC(C)/C=N\N=C(\N)N[N+](=O)[O-],inactive: 0.5%
19,CN(C(=O)Cc1ccc(Cl)c(Cl)c1)[C@@H]1CCCC[C@H]1N1CCCC1,inactive: 1.85%
20,CC1(CBr)Cn2c(nc3ccccc3c2=O)S1 (configuration not stated),inactive: -0.26%
21,O=[As](O)(c1ccccc1Br)c1ccccc1Br,inactive: 0.17%
22,O=C(OC1CN2CCC1CC2)c1ccc(Cl)cc1 (configuration not stated),inactive: 0.58%
23,CS(=O)(=O)c1ccc(Cl)c(NC(=O)COC(=O)C(O)(c2ccccc2)c2ccccc2)c1,inactive: -0.28%
24,COc1cc(C(=O)NCC2(N3CCOCC3)CCCCC2)cc(Cl)c1OC(C)C,inactive: -1.46%
25,O=[As](O)(O)c1cccnc1,inactive: 0.14%
26,O=[As](O)(c1cccc(O)c1)c1cccc(O)c1,inactive: 0.27%

row,SMILES,CPE inhibition
1,Cc1cccc(OCC(=O)OC2CN3CCC2CC3)c1 (configuration not stated),inactive: 0.31%
2,Nc1cccc2c([As](=O)(O)O)cccc12,inactive: -0.2%
3,Cc1ccc(NCCc2c([N+](=O)[O-])cc([N+](=O)[O-])cc2[N+](=O)[O-])cc1,inactive: -1.21%
4,CCCOP(=S)(Nc1nc(N)cc(=O)[nH]1)OCCC,inactive: 1.36%
5,CCOP(=O)(Nc1cccc2ccccc12)OCC,inactive: 0%
6,COc1cc(C2NCCC3(OCCO3)C2(C)C)cc(OC)c1OC (configuration not stated),inactive: -1.15%
7,O=P(Nc1nccs1)(c1ccccc1)c1nc2ccccc2s1 (configuration not stated),inactive: -0.19%
8,O=P(Nc1nccs1)(Oc1ccccc1)Oc1ccccc1,inactive: 0.95%
9,CCOP1(=S)c2c(C)nn(CCC#N)c2N=C(c2ccccc2F)N1C (configuration not stated),inactive: -0.48%
10,CS(=O)(=O)c1cc([N+](=O)[O-])c2no[n+]([O-])c2c1,inactive: 0.82%
11,Nc1ccccc1[As](=O)(O)c1ccccc1,inactive: 0.35%
12,O=C(O)COc1ccc([As](=O)(O)O)cc1[N+](=O)[O-],inactive: 0.13%
13,NC(=O)Nc1ccc([As](=O)(O)O)cc1,inactive: 0.55%
14,CN(C(=O)Cc1ccccc1)[C@@H]1CC[C@]2(CCCO2)C[C@H]1N1CCCC1,inactive: 0.31%
15,CCOP1(=S)c2c(C)nn(CCC#N)c2N=C(c2ccc(F)cc2)N1C (configuration not stated),inactive: -0.8%
16,CN(C(=O)Cc1ccc(Cl)c(Cl)c1)[C@H]1CC[C@@]2(CCCO2)C[C@@H]1N1CCCC1,inactive: 0.75%
17,O=[N+]([O-])c1ccc2c(c1)nnn2O,inactive: 0%
18,C[As](=O)(O)c1cccc(C(=O)O)c1,inactive: -0.2%
19,O=[As](O)(c1ccc(O)cc1)c1ccccc1O,inactive: 0.43%
20,Cc1ccc(OP(=O)(Nc2ccc([N+](=O)[O-])cn2)Oc2ccc(C)cc2)cc1,inactive: -0.39%
21,Cc1ccc2nc3c(c(C)c2c1)CC(C(Cl)Cl)S3 (configuration not stated),inactive: -0.92%
22,ClCCSc1nnc(-c2cccnc2)o1,inactive: 0.1%
23,CC(C)c1ccc(OP(=O)(Nc2ccccn2)Oc2ccccc2F)cc1 (configuration not stated),inactive: 0.03%
24,O=[N+]([O-])c1cc([N+](=O)[O-])c(-c2ccn[nH]2)s1,inactive: -0.47%
25,CCN(CC)C(=S)SC(NC=O)C(Cl)(Cl)Cl (configuration not stated),inactive: 0%
26,CC(C)NC(=O)NP(=O)(Oc1ccccc1)Oc1ccccc1,inactive: 0.83%

row,SMILES,CPE inhibition
1,Cc1c2c(nc3ccccc13)SC(C(Cl)Cl)C2 (configuration not stated),inactive: -0.86%
2,Cc1cc(=O)[nH]c(N[N+](=O)[O-])n1,inactive: 0.29%
3,O=C(OC1CN2CCC1CC2)C12CC3CC(CC(C3)C1)C2 (configuration not stated),inactive: -0.94%
4,COc1cc(I)ccc1[As](=O)(O)O,inactive: -0.36%
5,COc1ccc2nc(NP(=O)(c3ccccc3)c3ccccc3)sc2c1,inactive: -0.85%
6,COc1ccc(N/C(=N/P(=O)(N2CCOCC2)N2CCOCC2)N2CCOCC2)cc1,inactive: 0.06%
7,COP1(=S)c2c(C)nn(CCC#N)c2N=C(c2ccc(F)cc2)N1C (configuration not stated),inactive: -0.65%
8,O=C(Nc1ccncc1[N+](=O)[O-])c1ccc([N+](=O)[O-])cc1[N+](=O)[O-],inactive: -0.37%
9,O=C(OC1CN2CCC1CC2)c1cccc([N+](=O)[O-])c1 (configuration not stated),inactive: -0.31%
10,CCOC(=O)c1ccc(NC(=O)C(C)(CCl)SC)cc1 (configuration not stated),inactive: 0.26%
11,CCC(C)N(CC(C)C)C(=S)SC(NC(C)=O)C(Cl)(Cl)Cl (configuration not stated),inactive: -0.2%
12,CCOC(=O)Nc1ccc([As](=O)(O)O)c(O)c1,inactive: -0.07%
13,Cc1cc(SC(NC(=O)c2ccccc2)C(Cl)(Cl)Cl)nc(C(C)C)n1 (configuration not stated),inactive: -0.68%
14,CCCCOc1ccc(C(=O)NCC2(N3CCCCC3)CCCCC2)cc1OC,inactive: -0.14%
15,CCOC(=O)Nc1cccc([As](=O)(O)O)c1,inactive: -0.1%
16,O=P(Nc1ccccn1)(c1cccc2ccccc12)c1cccc2ccccc12,inactive: -0.36%
17,Cc1cc(SC(NC=O)C(Cl)(Cl)Cl)ncn1 (configuration not stated),inactive: -0.09%
18,O=[N+]([O-])c1ccc(Nc2ccc(Oc3ccc([N+](=O)[O-])cc3[N+](=O)[O-])cc2)c([N+](=O)[O-])c1,inactive: 0.13%
19,O=C(Nc1cc([As](=O)(O)O)ccc1O)c1ccccc1,inactive: 0.79%
20,O=[N+]([O-])c1ncn(CCn2ncnc2[N+](=O)[O-])n1,inactive: -0.31%
21,CC(C)(C)C(=O)NC(Sc1ccncn1)C(Cl)(Cl)Cl (configuration not stated),inactive: -0.06%
22,O=C(O)CNc1ccc([As](=O)(O)O)cc1,inactive: 0.79%
23,O=[N+]([O-])c1cccc(NC2=NCC(CBr)S2)c1 (configuration not stated),inactive: 0%
24,COc1ccc(C2=NCC(CBr)S2)cc1 (configuration not stated),inactive: -0.51%
25,O=[N+]([O-])c1cc([N+](=O)[O-])c(CCNc2ccccc2)c([N+](=O)[O-])c1,inactive: 1.55%
26,Cc1ccc(NP(=O)(Oc2ccccc2)Oc2ccccc2)nc1,inactive: -0.99%

row,SMILES,CPE inhibition
1,O=[N+]([O-])c1cccc2n[nH]nc12,inactive: -0.42%
2,CC(=O)N1C2C3N(C(C)=O)C1C1N(C(C)=O)C(C(N1C(C)=O)N3C(C)=O)N2C(C)=O,inactive: 0.41%
3,CCN(/C(=N/P(=O)(N1CCOCC1)N1CCOCC1)N1CCOCC1)c1ccc(OC)cc1,inactive: -0.64%
4,C[N+]1=C2C=CC=CC=C2SC12C([N+](=O)[O-])=CC([N+](=O)[O-])=C[C-]2[N+](=O)[O-] (configuration not stated),inactive: 0.45%
5,Nc1ccc([As](=O)(O)c2ccc(N)cc2)cc1,inactive: -0.28%
6,CC1CCN(C(=O)Oc2c(Cl)cc(Cl)c3cccnc23)CC1,inactive: -0.58%
7,CN(C)C(=O)OCCc1n(C)cc[n+]1C,inactive: 0.52%
8,CC(C)=N/N=C(\N)N[N+](=O)[O-],inactive: 0.83%
9,Cc1ccc(N/C(=N/P(=O)(N2CCOCC2)N2CCOCC2)N2CCOCC2)cc1,inactive: 0.28%
10,NC(=O)c1cc([N+](=O)[O-])cc([N+](=O)[O-])c1N,inactive: 0.78%
11,Clc1ccc(Cl)c(NC2=NCC(CBr)S2)c1 (configuration not stated),inactive: -0.64%
12,CN1CCCC(OC(=O)C(c2ccccc2)c2ccccc2)C1 (configuration not stated),inactive: -0.36%
13,Cc1ccc(OP(=O)(Nc2nccs2)Oc2ccc(C)cc2)cc1,inactive: 0.45%
14,COc1ccccc1OP(=O)(Nc1ccc(C)cn1)Oc1ccccc1OC,inactive: 0.06%
15,Cc1c2non([O-])c-2c(C)[n+](=O)[n+]1[O-],inactive: -0.29%
16,O=C(NC(Sc1ccncn1)C(Cl)(Cl)Cl)c1ccccc1 (configuration not stated),inactive: -0.81%
17,Oc1ccccc1CNc1ccccn1,inactive: -0.13%
18,CC(C)CC(=O)NC(Sc1ccc(Cl)cc1)C(Cl)(Cl)Cl (configuration not stated),inactive: -0.53%
19,Nc1cc(N)c2nonc2c1[N+](=O)[O-],inactive: -0.07%
20,O=P(Nc1nc2ccc(Cl)cc2s1)(c1ccccc1)c1ccccc1,inactive: 1.3%
21,O=C(O)c1ccccc1[As](=O)(O)O,inactive: 0.11%
22,CC(=O)Nc1ccc([As](=O)(O)O)cc1,inactive: 1.18%
23,Cc1ccc(NP(=O)(Oc2ccccc2F)Oc2ccccc2F)nc1,inactive: 0.13%
24,CN(C(=O)Cc1ccc(Cl)c(Cl)c1)[C@H]1CCCC[C@@H]1N1CCCC1,inactive: 0.75%
